The results in this text go back to US10799494B2, “Combination of respiratory electron transport chain inhibitors with a cytochrome bd inhibitor” (priority 2015, dated 2020).

Protein sequences, listed by entry. Tags and fused reporters are not part of them. Residues count along the entry.
UniProt L7N662, 1-485: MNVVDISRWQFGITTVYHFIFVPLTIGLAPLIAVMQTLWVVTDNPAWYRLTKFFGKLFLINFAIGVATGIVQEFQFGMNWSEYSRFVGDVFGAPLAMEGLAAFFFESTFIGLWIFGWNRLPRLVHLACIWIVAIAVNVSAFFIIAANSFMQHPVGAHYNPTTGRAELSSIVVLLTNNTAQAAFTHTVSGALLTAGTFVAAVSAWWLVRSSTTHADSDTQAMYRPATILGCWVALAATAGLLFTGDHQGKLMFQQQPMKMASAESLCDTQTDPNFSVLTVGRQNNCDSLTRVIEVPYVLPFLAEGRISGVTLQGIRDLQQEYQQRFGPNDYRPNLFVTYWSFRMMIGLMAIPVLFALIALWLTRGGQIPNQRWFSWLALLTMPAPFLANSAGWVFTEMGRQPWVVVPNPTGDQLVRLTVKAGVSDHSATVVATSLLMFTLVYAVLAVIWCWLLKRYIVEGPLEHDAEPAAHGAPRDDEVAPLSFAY
UniProt P95160, whole entry: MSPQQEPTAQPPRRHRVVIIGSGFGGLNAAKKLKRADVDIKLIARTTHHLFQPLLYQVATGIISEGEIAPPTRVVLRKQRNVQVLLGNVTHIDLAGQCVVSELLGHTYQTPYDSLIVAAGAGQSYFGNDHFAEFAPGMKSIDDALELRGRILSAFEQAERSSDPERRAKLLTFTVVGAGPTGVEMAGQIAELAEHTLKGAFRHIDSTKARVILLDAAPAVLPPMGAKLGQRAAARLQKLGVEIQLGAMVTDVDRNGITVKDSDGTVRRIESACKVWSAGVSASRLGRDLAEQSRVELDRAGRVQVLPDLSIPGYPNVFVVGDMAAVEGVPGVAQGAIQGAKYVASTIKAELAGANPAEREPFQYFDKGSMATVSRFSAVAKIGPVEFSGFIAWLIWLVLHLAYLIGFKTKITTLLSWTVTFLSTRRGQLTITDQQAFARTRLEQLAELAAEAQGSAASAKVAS

Assay [1] addresses M. tuberculosis cytochrome bd-I (Mycobacterium tuberculosis, UniProt L7N662). Conditions: read-out: In vitro Cyt bd enzyme inhibition (IC50); Table 5.
For assay [2], the target named is ndh (Mycobacterium tuberculosis (strain ATCC 25618 / H37Rv), UniProt P95160). The assay is described as follows: In vitro ndh enzyme inhibition. In kind it is biochemical. Conditions: read-out: In vitro ndh enzyme inhibition (IC50).

Turning to `Cc1c(-c2ccc(N3CCC(F)(F)C3)cc2)[nH]c2cc(F)cc(F)c2c1=O` [MTC420], the IC50 (commonly the concentration that gives 50% inhibition) in assay [1] was 5.58 µM; in assay [2], over 1 µM.
